Anti-infective test results gathered from many reports (values: NIAID ChemDB through PubChem).

Shared fields: tests in culture; agent: Candida albicans; measure: MFC

An empty or dashed field is not shown.

structure,strain,method,value
C[C@@H]1Oc2ccccc2/C(=N/OCc2cccc(F)c2)[C@H]1n1ccnc1,ATCC 10231,-,>64 µg/mL
CCCSc1cc(C(N)=S)ccn1,3a,-,200 µg/mL
COC1CC2CCC(C)C(O)(O2)C(=O)C(=O)N2CCCCC2C(=O)OC(C(C)CC2CCC(O)C(OC)C2)CC(=O)C(C)/C=C(\C)C(O)C(OC)C(=O)C(C)C[C@](C)(N(O)C(=O)NN2CCCCC2)/C=C/C=C/C=C/1C,WILD TYPE,-,0.78 µg/mL
C[C@@H]1Oc2ccccc2/C(=N/OCc2ccc(Cl)c(Cl)c2)[C@H]1n1ccnc1,ATCC 10231,-,16 µg/mL
CCCCCCCCCSc1cc(C(N)=S)ccn1,3a,-,200 µg/mL
CCC(C)CC(C)CCCCCCCCC(=O)N[C@H]1C[C@@H](O)[C@@H](O)NC(=O)[C@@H]2[C@@H](O)CCN2C(=O)[C@H]([C@H](O)CCN)NC(=O)[C@H]([C@H](O)Cc2ccc(O)cc2)NC(=O)[C@@H]2C[C@@H](O)CN2C(=O)[C@H]([C@@H](C)O)NC1=O,MY1055,-,<0.06 µg/mL
C[C@@H]1Oc2ccccc2/C(=N/OCc2ccccc2F)[C@H]1n1ccnc1,ATCC 10231,-,>64 µg/mL
c1ccc(CN(Cc2ccc(-c3ccccc3)cc2)n2ccnc2)cc1,-,-,200 µM
c1ccc(-c2csc(NN=C3CCCC3)n2)cc1,-,-,3.12 µg/mL
CC1(C)CC[C@]2(C(=O)O)CC[C@]3(C)C(=CC[C@@H]4[C@@]5(C)CC[C@H](OC6O[C@H](CO)[C@@H](O)[C@H](O)[C@H]6O)[C@@](C)(CO)[C@@H]5CC[C@]43C)[C@@H]2C1,Y0109,-,>100 µg/mL
C[C@H]1[C@H](O)[C@@H](C)/C=C/C=C/C=C/C=C/C=C/C=C/C=C/[C@H](O[C@@H]2O[C@H](C)[C@@H](O)[C@H](N)[C@@H]2O)C[C@@H]2O[C@](O)(C[C@@H](O)C[C@@H](O)CC[C@H](O)[C@@H](O)C[C@@H](O)CC(=O)O[C@H]1C)C[C@H](O)[C@H]2C(=O)O,ATCC 18804 and ATCC 28815 26555 24433 64544 64550,-,0.78–3.13 µg/mL
OC(Cn1cncn1)(Cn1cncn1)c1ccc(F)cc1F,3028,-,>100 µg/mL
CC(C)N=C(N)c1ccc2nc(-c3ccc4c(c3)Cc3cc(-c5nc6ccc(C(N)=NC(C)C)cc6[nH]5)ccc3-4)[nH]c2c1,Isolate CA2601 fluconazole-resistant,-,1.56 µg/mL
C[C@@H]1Oc2ccccc2/C(=N/OCc2ccc(Cl)cc2)[C@H]1n1cncn1,ATCC 10231,-,>64 µg/mL
N/C(=N/N=C1CCCC1)SCc1ccccc1,-,-,>200 µg/mL
COC(=O)[C@H]1[C@@H]2C[C@@H](O[C@@H]3O[C@H](C)[C@@H](O)[C@H](N)[C@@H]3O)/C=C/C=C/C=C/C=C/C=C/C=C/C=C/[C@H](C)[C@@H](O)[C@H](C)[C@H](C)OC(=O)C[C@H](O)C[C@H](O)[C@@H](O)CC[C@H](O)C[C@H](O)C[C@](O)(C[C@@H]1O)O2,-,-,3.1 µM
Cc1ccc(CN(Cc2ccc(-c3ccccc3)cc2)n2ccnc2)cc1,-,-,200 µM
C[C@@H]1O[C@@H](O[C@H]2[C@H](O)[C@@H](O)C(OC3[C@H](O[C@H]4CC[C@]5(C)[C@H]6CC=C7[C@@H]8CC(C)(C)CC[C@]8(C(=O)O)CC[C@@]7(C)[C@]6(C)CC[C@H]5C4(C)C)OC[C@H](O)[C@@H]3O)O[C@@H]2CO)[C@H](O)[C@H](O)[C@H]1O,Y0109,-,>100 µg/mL
c1ccc(-c2csc(NN=C3CCCCCC3)n2)cc1,-,-,12.5 µg/mL
CCC(C)CC(C)CCCCCCCCC(=O)N[C@H]1C[C@@H](O)[C@@H](O)NC(=O)[C@@H]2[C@@H](O)CCN2C(=O)[C@H]([C@H](O)CCNC(C)=O)NC(=O)[C@H]([C@H](O)Cc2ccc(O)cc2)NC(=O)[C@@H]2C[C@@H](O)CN2C(=O)[C@H]([C@@H](C)O)NC1=O,MY1055,-,4 µg/mL
C[C@@H]1O[C@@H](O[C@H]2[C@H](O)[C@@H](O)C(OC3[C@H](O[C@H]4CC[C@@]5(C)[C@@H](CC[C@]6(C)[C@@H]5CC=C5[C@@H]7CC(C)(C)CC[C@]7(C(=O)O)CC[C@]56C)[C@]4(C)CO)OC[C@H](O)[C@@H]3O)O[C@@H]2CO)[C@H](O)[C@H](O)[C@H]1O,Y0109,-,12.5 µg/mL
COc1ccc(CN(Cc2ccc(-c3ccccc3)cc2)n2ccnc2)cc1,-,-,200 µM
C[C@@H]1Oc2ccccc2/C(=N/OCc2ccc(Cl)cc2Cl)[C@H]1n1cncn1,ATCC 10231,-,>64 µg/mL
COC1CC2CCC(C)C(O)(O2)C(=O)C(=O)N2CCCCC2C(=O)OC(C(C)CC2CCC(O)C(OC)C2)CC(=O)C(C)/C=C(\C)[C@@](O)(c2ccc(C)s2)C(OC)C(=O)C(C)CC(C)/C=C/C=C/C=C/1C,TOR1-1/TOR1,-,>100 µg/mL
Cc1cc(-c2n[nH]c(C)c2N=O)no1,-,-,>200 µM
CC(C)CC1NC(=O)CC(CCCCCCCCC(C)O)OC(=O)C(CC(C)C)NC(=O)C(CC(C)C)NC(=O)C(CC(C)C)NC(=O)C(C(C)C)NC(=O)C(CC(=O)O)NC(=O)C(CC(C)C)NC1=O,ATCC 10231,visual reading,2 µg/mL
Cc1cc(-c2cc(C)on2)n(C)n1,-,-,>200 µM
C[C@@H]1Oc2cc(Cl)ccc2/C(=N/OCc2ccc(Cl)cc2Cl)[C@H]1[n+]1cnc[nH]1,ATCC 10231,-,>64 µg/mL
NC(=S)c1ccnc(SC2CCCCC2)c1,3a,-,100 µg/mL
Cc1onc(-c2nn(C)c(C)c2[N+](=O)[O-])c1[N+](=O)[O-],-,-,>200 µM
CCCCCSc1cc(C(N)=S)ccn1,3a,-,100 µg/mL
C[C@@H]1Oc2cc(Cl)ccc2/C(=N/OCc2ccc(Cl)cc2Cl)[C@H]1n1ccnc1,ATCC 10231,-,>64 µg/mL
Fc1ccccc1CN(Cc1ccc(-c2ccccc2)cc1)n1ccnc1,-,-,200 µM
CC1(C)CC[C@]2(C(=O)O)CC[C@]3(C)C(=CC[C@@H]4[C@@]5(C)CC[C@H](O[C@@H]6OC[C@H](O)[C@H](O)C6O)[C@@](C)(CO)[C@@H]5CC[C@]43C)[C@@H]2C1,ATCC 90029,-,>100 µg/mL

The last 3 rows once more:

| structure | strain | method | value |
|---|---|---|---|
| C[C@@H]1Oc2cc(Cl)ccc2/C(=N/OCc2ccc(Cl)cc2Cl)[C@H]1n1ccnc1 | ATCC 10231 | - | >64 µg/mL |
| Fc1ccccc1CN(Cc1ccc(-c2ccccc2)cc1)n1ccnc1 | - | - | 200 µM |
| CC1(C)CC[C@]2(C(=O)O)CC[C@]3(C)C(=CC[C@@H]4[C@@]5(C)CC[C@H](O[C@@H]6OC[C@H](O)[C@H](O)C6O)[C@@](C)(CO)[C@@H]5CC[C@]43C)[C@@H]2C1 | ATCC 90029 | - | >100 µg/mL |

a–b is a range or a potency band. Rows are shuffled and stem from different studies.